Target: Hsp70 (Homo sapiens, UniProt P0DMV8)
Experiment: Hsp70-assisted refolding of GdmCl-denatured firefly luciferase
Assay type: biochemical
Settings: in words

Amino acid sequences for entries named in this document (tags omitted).
UniProt P0DMV8, whole entry, looked up: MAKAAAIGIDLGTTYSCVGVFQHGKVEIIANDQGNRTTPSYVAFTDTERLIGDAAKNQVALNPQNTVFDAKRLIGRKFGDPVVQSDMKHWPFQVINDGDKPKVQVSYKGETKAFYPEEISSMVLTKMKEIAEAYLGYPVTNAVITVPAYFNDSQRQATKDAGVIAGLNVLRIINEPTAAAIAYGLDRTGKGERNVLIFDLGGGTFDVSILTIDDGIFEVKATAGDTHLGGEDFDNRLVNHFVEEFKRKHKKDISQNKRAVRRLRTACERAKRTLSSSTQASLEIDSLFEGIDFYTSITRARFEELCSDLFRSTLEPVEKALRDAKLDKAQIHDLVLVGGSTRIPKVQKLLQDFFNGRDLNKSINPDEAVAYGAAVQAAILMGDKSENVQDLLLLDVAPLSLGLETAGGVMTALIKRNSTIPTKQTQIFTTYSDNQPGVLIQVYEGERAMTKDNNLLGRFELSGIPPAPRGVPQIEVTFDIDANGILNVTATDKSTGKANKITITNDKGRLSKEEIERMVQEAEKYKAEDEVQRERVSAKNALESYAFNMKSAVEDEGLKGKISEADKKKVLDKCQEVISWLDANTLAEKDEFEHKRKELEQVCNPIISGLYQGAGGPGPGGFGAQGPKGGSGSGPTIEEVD

Compound: CSc1ccc2c[n+]3ccccc3cc2c1
- inhibition of the protein folding helper activity of Hsp70: did not significantly inhibit
